This assay deals with spike Var3 (N439K/D614G), cell surface expressed (SARS-CoV-2) (UniProt P0DTC2). Kind of assay: flow cytometry on cells. For orientation: A flow cytometer gives signals particle by particle.

Take CB6 (antibody): the fold reduction in binding against D614G is < 2 fold.

The values above are taken from paper doi:10.1101/2021.02.25.432969.
